In US20240109955A1 (published 2024):

Legend:
Experiment in all cases: cell-based or functional assay
[1] = biological target: SARS-CoV-2 spike (S) protein, Omicron sublineage BQ.1 (SARS-CoV-2)
[2] = biological target: SARS-CoV-2 spike (S) protein, Omicron sublineage BQ.1.1 (SARS-CoV-2)
[3] = biological target: SARS-CoV-2 spike (S) protein, Omicron sublineage XBB (SARS-CoV-2)
[4] = biological target: SARS-CoV-2 spike (S) protein, Omicron sublineage BA.4/5 (SARS-CoV-2)
[5] = biological target: SARS-CoV-2 spike (S) protein, Omicron sublineage BA.2.75.2 (SARS-CoV-2)

Binder | IC50, pseudovirus neutralization [1] [ng/mL] | IC80, pseudovirus neutralization [1] [ng/mL] | IC50, pseudovirus neutralization [2] [ng/mL] | IC80, pseudovirus neutralization [2] [ng/mL] | IC50, pseudovirus neutralization [3] [ng/mL] | IC80, pseudovirus neutralization [3] [ng/mL] | IC50, pseudovirus neutralization [4] [ng/mL] | IC80, pseudovirus neutralization [4] [ng/mL] | IC50, pseudovirus neutralization [5] [ng/mL] | IC80, pseudovirus neutralization [5] [ng/mL]
MX1054 (trispecific antibody) chain 1: QTVVTQEPSFSVSPGGTVTLTCGLSSGSVSTAYFPSWYQQTPGQAPRTLIYGTNTRSSGVPDRFSGSILGNKAALTITGAQADDESDYYCVLYMGRGIVVFGGGTKLTVLGGSSGEIVMTQSPAILSVSPGERATLSCRASQSVAINLAWYQQKPGQAPRLLIYAASSRATGIPGRFSGSGSETNFTLTISSLQSGDFAVYYCQQYITWPPSYTFGQGTKLEIKGGGGSGGSGSGGGGSASGSGEVQLVESGGALIQPGGSLRLSCAASGIIVSANYMSWVRQAPGKGLEWVSVIYSGGSTFYADSVKGRFTISRDNSKNTLYLEMNSLRAEDTAVYYCARDAPILGVSDWGQGTLVTVSSGGSSGQVQLVESGGGVVQPGRSLRLSCAASGFTLSSYGMHWVRQAPGKGLEWVAVISYDGSNKYYVDSVKGRFTISRDNSKNTLYLQMNSLRAEDTAVYYCRWAYWELLPDYYYGMDVWGQGTTVTVSSASGGSGDKTHTCPPCPAPELLGGPSVFLFPPKPKDTLMISRTPEVTCVVVDVSHEDPEVKFNWYVDGVEVHNAKTKPREEQYNSYVVSVLTVLHQDWLNGKEYKCKVSNKALPAPIEKTISKAKGQPREPQVYTLPPCRDELTKNQVSLWCLVKGFYPSDIAVEWESNGQPENNYKTTPPVLDSDGSFFKKLTVDKSRWQQGNVFSCSVLHEALHSHYTQKSLSLSPG chain 2: EIVMTQSPAILSVSPGERATLSCRASQSVAINLAWYQQKPGQAPRLLIYAASSRATGIPGRFSGSGSETNFTLTISSLQSGDFAVYYCQQYITWPPSYTFGQGTKLEIKGGSSGDTVMTQSPLSLPVTPGEPASISCRSSQSLLNSNGYNYLDWYVQKPGQSPQLLIYLGSNRASGVPDRFSGSGSGTDFTLKISRVEAEDVGVYYCMQPLQTPLFTFGPGTKVEIKGGGGSGGSGSGGGGSASGSGQVTLRESGPALVKPTQTLTLTCTFSGFSLSTRGVCVSWIRQPPGKALEWLAFIDWDDDKYYNTSLKTRLTISKDTSKNQVVLTMTNVHPVDTATYYCARISSHHGSSWCTTFDYWGQGALVTVSAGGSSGEVQLVESGGALIQPGGSLRLSCAASGIIVSANYMSWVRQAPGKGLEWVSVIYSGGSTFYADSVKGRFTISRDNSKNTLYLEMNSLRAEDTAVYYCARDAPILGVSDWGQGTLVTVSSASGGSGDKTHTCPPCPAPELLGGPSVFLFPPKPKDTLMISRTPEVTCVVVDVSHEDPEVKFNWYVDGVEVHNAKTKPREEQYNSYVVSVLTVLHQDWLNGKEYKCKVSNKALPAPIEKTISKAKGQPREPQVCTLPPSRDELTKNQVSLSCAVKGFYPSDIAVEWESNGQPENNYKTTPPVLDSDGSFFLVSKLTVDKSRWQQGNVFSCSVLHEALHSHYTQKSLSLSPG | 25 | 53.5 | 20.5 | 38.6 | 17.7 | 29.9 | 9.55 | 47.2 | 13.1 | 35.4
MX1062 (trispecific antibody) chain 1: QTVVTQEPSFSVSPGGTVTLTCGLSSGSVSTAYFPSWYQQTPGQAPRTLIYGTNTRSSGVPDRFSGSILGNKAALTITGAQADDESDYYCVLYMGRGIVVFGGGTKLTVLGGSSGEIVMTQSPAILSVSPGERATLSCRASQSVAINLAWYQQKPGQAPRLLIYAASSRATGIPGRFSGSGSETNFTLTISSLQSGDFAVYYCQQYITWPPSYTFGQGTKLEIKGGGGSGGSGSGGGGSASGSGEVQLVESGGALIQPGGSLRLSCAASGIIVSANYMSWVRQAPGKGLEWVSVIYSGGSTFYADSVKGRFTISRDNSKNTLYLEMNSLRAEDTAVYYCARDAPILGVSDWGQGTLVTVSSGGSSGQVQLVESGGGVVQPGRSLRLSCAASGFTLSSYGMHWVRQAPGKGLEWVAVISYDGSNKYYVDSVKGRFTISRDNSKNTLYLQMNSLRAEDTAVYYCRWAYWELLPDYYYGMDVWGQGTTVTVSSASGGSGDKTHTCPPCPAPELLGGPSVFLFPPKPKDTLMISRTPEVTCVVVDVSHEDPEVKFNWYVDGVEVHNAKTKPREEQYNSYVVSVLTVLHQDWLNGKEYKCKVSNKALPAPIEKTISKAKGQPREPQVYTLPPCRDELTKNQVSLWCLVKGFYPSDIAVEWESNGQPENNYKTTPPVLDSDGSFFKKLTVDKSRWQQGNVFSCSVLHEALHSHYTQKSLSLSPG chain 2: DTVMTQSPLSLPVTPGEPASISCRSSQSLLNSNGYNYLDWYVQKPGQSPQLLIYLGSNRASGVPDRFSGSGSGTDFTLKISRVEAEDVGVYYCMQPLQTPLFTFGPGTKVEIKGGSSGEIVMTQSPAILSVSPGERATLSCRASQSVAINLAWYQQKPGQAPRLLIYAASSRATGIPGRFSGSGSETNFTLTISSLQSGDFAVYYCQQYITWPPSYTFGQGTKLEIKGGGGSGGSGSGGGGSASGSGEVQLVESGGALIQPGGSLRLSCAASGIIVSANYMSWVRQAPGKGLEWVSVIYSGGSTFYADSVKGRFTISRDNSKNTLYLEMNSLRAEDTAVYYCARDAPILGVSDWGQGTLVTVSSGGSSGQVTLRESGPALVKPTQTLTLTCTFSGFSLSTRGVCVSWIRQPPGKALEWLAFIDWDDDKYYNTSLKTRLTISKDTSKNQVVLTMTNVHPVDTATYYCARISSHHGSSWCTTFDYWGQGALVTVSAASGGSGDKTHTCPPCPAPELLGGPSVFLFPPKPKDTLMISRTPEVTCVVVDVSHEDPEVKFNWYVDGVEVHNAKTKPREEQYNSYVVSVLTVLHQDWLNGKEYKCKVSNKALPAPIEKTISKAKGQPREPQVCTLPPSRDELTKNQVSLSCAVKGFYPSDIAVEWESNGQPENNYKTTPPVLDSDGSFFLVSKLTVDKSRWQQGNVFSCSVLHEALHSHYTQKSLSLSPG | 17.9 | 92.4 | 17.8 | 20.4 | 18.3 | 39.3 | 15.8 | 21.6 | 16.2 | 34.5
MX1063 (trispecific antibody) chain 1: EIVMTQSPAILSVSPGERATLSCRASQSVAINLAWYQQKPGQAPRLLIYAASSRATGIPGRFSGSGSETNFTLTISSLQSGDFAVYYCQQYITWPPSYTFGQGTKLEIKGGSSGQTVVTQEPSFSVSPGGTVTLTCGLSSGSVSTAYFPSWYQQTPGQAPRTLIYGTNTRSSGVPDRFSGSILGNKAALTITGAQADDESDYYCVLYMGRGIVVFGGGTKLTVLGGGGSGGSGSGGGGSASGSGQVQLVESGGGVVQPGRSLRLSCAASGFTLSSYGMHWVRQAPGKGLEWVAVISYDGSNKYYVDSVKGRFTISRDNSKNTLYLQMNSLRAEDTAVYYCRWAYWELLPDYYYGMDVWGQGTTVTVSSGGSSGEVQLVESGGALIQPGGSLRLSCAASGIIVSANYMSWVRQAPGKGLEWVSVIYSGGSTFYADSVKGRFTISRDNSKNTLYLEMNSLRAEDTAVYYCARDAPILGVSDWGQGTLVTVSSASGGSGDKTHTCPPCPAPELLGGPSVFLFPPKPKDTLMISRTPEVTCVVVDVSHEDPEVKFNWYVDGVEVHNAKTKPREEQYNSYVVSVLTVLHQDWLNGKEYKCKVSNKALPAPIEKTISKAKGQPREPQVYTLPPCRDELTKNQVSLWCLVKGFYPSDIAVEWESNGQPENNYKTTPPVLDSDGSFFKKLTVDKSRWQQGNVFSCSVLHEALHSHYTQKSLSLSPG chain 2: EIVMTQSPAILSVSPGERATLSCRASQSVAINLAWYQQKPGQAPRLLIYAASSRATGIPGRFSGSGSETNFTLTISSLQSGDFAVYYCQQYITWPPSYTFGQGTKLEIKGGSSGDTVMTQSPLSLPVTPGEPASISCRSSQSLLNSNGYNYLDWYVQKPGQSPQLLIYLGSNRASGVPDRFSGSGSGTDFTLKISRVEAEDVGVYYCMQPLQTPLFTFGPGTKVEIKGGGGSGGSGSGGGGSASGSGQVTLRESGPALVKPTQTLTLTCTFSGFSLSTRGVCVSWIRQPPGKALEWLAFIDWDDDKYYNTSLKTRLTISKDTSKNQVVLTMTNVHPVDTATYYCARISSHHGSSWCTTFDYWGQGALVTVSAGGSSGEVQLVESGGALIQPGGSLRLSCAASGIIVSANYMSWVRQAPGKGLEWVSVIYSGGSTFYADSVKGRFTISRDNSKNTLYLEMNSLRAEDTAVYYCARDAPILGVSDWGQGTLVTVSSASGGSGDKTHTCPPCPAPELLGGPSVFLFPPKPKDTLMISRTPEVTCVVVDVSHEDPEVKFNWYVDGVEVHNAKTKPREEQYNSYVVSVLTVLHQDWLNGKEYKCKVSNKALPAPIEKTISKAKGQPREPQVCTLPPSRDELTKNQVSLSCAVKGFYPSDIAVEWESNGQPENNYKTTPPVLDSDGSFFLVSKLTVDKSRWQQGNVFSCSVLHEALHSHYTQKSLSLSPG | 14.3 | 56.1 | 22.8 | 55.1 | 6.62 | 18.1 | 5.02 | 26.7 | 8.41 | 21
